Source: PMC12148588 (eBioMedicine, 2025)

Target: SARS-CoV-2 RBD of the Wuhan strain (Acro Biosystems SPD-C82E9-25) (SARS-CoV-2, Wuhan strain, UniProt P0DTC2)
Conditions: both partners purified

B1: MB025_A09L (antibody, V domains shown)
VH: EVQLVESGGGLVQPGGSLRLSCAASGFSVSIFYMNWVRQAPGKGLEWVSSVYSGETTYYADSVRGRFTISRDNSKSTLYLQMNSLRPEDTAVYYCARGVDYRTNRTEGGAFDIWGQGTMVTVSS
VL: QSALTQPASVSGSPGQSIPISCTGTSSDFGNYNLISWYQQHPGKAPKLMIYEGTKRPSGVSDRFSGSKSANTASLTISGLQAEDEADYYCCSYAGSSTWMFGGGTKLTVL
fold improvement of binding over the germline version MB025_A09Lgl: > 1000 fold
